Results published in US8092020B2 (priority 2002, dated 2012).

System: Sprague-Dawley rat
Settings: in vivo

[C-]#[O+] [CO, Carbon monoxide]
60 minute exposure LD50: 3123 ppm
